Measured values from several laboratories, pooled; numbers as filed in NIAID ChemDB.

Shared fields: whole-cell or culture tests; agent: Mycobacterium tuberculosis

ECn: concentration that inhibits the pathogen or its effect by n%. Inhibition is in % at the dose shown (toxicity tests: loss of growth or viability). An empty or dashed field is not shown. MIC50, MIC90 and the like: level of inhibition, or share of isolates inhibited. MIC bound: limit read from a one-dose screen. Rows are shuffled and stem from different studies.

compound	read-out	strain	changes	read by	cells	dose	conditions	value
O=C(Cc1ccccc1)N[C@@H]1C(=O)N2C3=C(CSC12)CN(C(=O)c1ccc(C(F)(F)F)cc1)OC3=O	MIC	H37Rv						10.3 µM
CC(=O)Oc1cc(Cl)ccc1C(=O)Nc1ccc(Cl)c(Cl)c1	MIC	My 331/88						1 µg/mL
CC[C@H]1OC(=O)[C@H](C)C(=O)[C@H](C)[C@@H](O[C@@H]2O[C@H](C)C[C@H](N(C)C)[C@H]2O)[C@](C)(OC)C[C@@H](C)C(=O)[C@H](C)[C@H]2N(NCCCc3ccnc4ccccc34)C(=O)O[C@]12C	MIC	Isolate 900216						40 µg/mL
O=C(Cc1ccccc1)N[C@@H]1C(=O)N2C3=C(CSC12)CN(C(=O)c1ccccc1)OC3=O	MIC	H37Rv						126 µM
O=C(NCC(=O)N1CCN(c2ccc(N3C[C@H](Cn4ccnn4)OC3=O)cc2F)CC1)C1=CC=C([N+](=O)[O-])C1	MIC	H37Rv		visual reading				0.92 µM
Cc1ccc(/C=N/NC(=O)Nc2ccc3c(c2)C(=O)C(=O)N3CN(C)C)cc1	MIC	MDR		resazurin				>50 µg/mL
O=C(O)[C@H]1/C(=C/CO)O[C@@H]2CC(=O)N21	MIC	Isolate 4						>16 µg/mL
CC(C)Oc1ccc(NC(=S)NCCC(=O)O)cc1	MIC	H37Rv						2.5 µg/mL
CC1=CC(=O)c2c(ccc(C3=C(C)C(=O)c4cccc(O)c4C3=O)c2O)C1=O	MIC	CIBIN 99 (MDR-MTB)		resazurin				50 µg/mL
CCCCOc1ccc(N2C(=O)CCNC2=S)cc1	MIC	H37Rv						2.5 µg/mL
CO[C@H]1/C=C/O[C@@]2(C)Oc3c(C)c(O)c4c(O)c(c(/C=N/N5CCN(C/C=C/c6ccccc6)CC5)c(O)c4c3C2=O)NC(=O)/C(C)=C\C=C\[C@H](C)[C@H](O)[C@@H](C)[C@@H](O)[C@@H](C)[C@H](OC(C)=O)[C@@H]1C	MIC	H37Rv						0.1 µg/mL
NC[C@H]1O[C@H](O[C@H]2[C@H](O)[C@@H](O[C@H]3O[C@H](CO)[C@@H](O)[C@H](N)[C@H]3O)[C@H](N)C[C@@H]2N)[C@H](O)[C@@H](O)[C@@H]1O	MIC	Isolate CKN64-301 (rrs A1401G mutation)						>80 µg/mL
CC(=O)Nn1c(Cc2ccc(Cl)cc2)nn(C)c1=O	inhibition	H37Rv		BACTEC		12.5 µg/mL		0%
CC(C)(C)C/C(O)=C/c1nc2ccccc2nc1/C=C(\O)CC(C)(C)C	inhibition					6.25 µg/mL		7%
CCCC(C)Oc1ccc(N2C(=O)CCNC2=S)cc1	MIC	H37Rv						5 µg/mL
Cc1ncc(C(=O)O)c(C(=O)O)c1N	MIC bound	H37Rv		resazurin				>6.25 µg/mL
C[C@@H](O)[C@H]1C(=O)N2C(C(=O)O)=C(SCCN=CN)C[C@H]12	MIC	Isolate 2						4 µg/mL
Cc1ccc(/C=N/NC(=O)Nc2ccc3c(c2)C(=O)C(=O)N3CN2CCNCC2)cc1	MIC	MDR		resazurin				>50 µg/mL
C[C@@H]1CN(c2c(F)c(N)c3c(=O)c(C(=O)O)cn(C4CC4)c3c2F)C[C@H](C)N1	MIC	900241						0.1 µg/mL
CC1COc2c(N3CCN(C)CC3)c(F)cc3c(=O)c(C(=O)O)cn1c23	MIC	CIBIN 99 (MDR-MTB)		resazurin				0.5 µg/mL
CC(=O)Oc1cc(Cl)ccc1C(=O)Nc1ccc(Cl)cc1	MIC	My 331/88						2 µg/mL
O=C(NCC(=O)N1CCN(c2ccc(N3C[C@H](Cn4ccnn4)OC3=O)cc2F)CC1)c1cccnc1	MIC	SRI 1369	Isoniazid-resistant	broth dilution / visual reading				2 µM
O=C(CCN1C(=O)/C(=C/c2ccc([N+](=O)[O-])cc2)SC1=S)NNC(=O)c1ccncc1	MIC	H37Rv						1.54 µM
CCC(C)Oc1ccc(NC(=S)NCCC(=O)O)cc1	MIC	H37Rv						2.5 µg/mL
Cc1nc2ccc(Cl)cc2c(=S)n1-c1ccc(Br)cc1	MIC	My 331/88						31 µg/mL
Cc1ccc(/C=N/NC(=O)Nc2ccc3c(c2)C(=O)C(=O)N3CN2CCN(c3ccc(C)cc3)CC2)cc1	MIC	MDR		resazurin				25 µg/mL
COC1=C(\Br)CC2(OC/C=C\1Br)ON=C(C(=O)NCCCOc1c(Br)cc(CCN)cc1Br)[C@@H]2O	MIC							30 µg/mL
COc1ccc2oc(-c3cc4cc(OC)ccc4o3)cc2c1	inhibition	H37Rv		BACTEC		12.5 µg/mL		-2%
NNC(=O)c1ccncc1	EC50	H37Rv						0.72 µM
CCc1ccc(NC(=S)NCCC(=O)O)cc1	MIC	H37Rv						1.3 µg/mL
CC(=O)NC[C@H]1CN(c2ccc(N3CC4CC(=NO)CC4C3)c(F)c2)C(=O)O1	MIC	H37Rv		resazurin				0.5 µg/mL
Cc1ccc(C(=O)N(O)CC2=C(C(=O)O)N3C(=O)[C@@H](NC(=O)Cc4ccccc4)C3SC2)cc1	MIC	H37Rv						31 µM
O=C(Cc1cccs1)N[C@@H]1C(=O)N2C(C(=O)[O-])=C(C[n+]3ccccc3)CS[C@H]12	MIC	H37Rv						>16 µg/mL
COc1ccc(-c2coc3cc(OC)c(OC)c(OC)c3c2=O)cc1	inhibition	H37Rv		BACTEC		12.5 µg/mL		-32%
O=C(O)c1cn(C2CC2)c2c(Cl)c(N3C[C@@H]4CCCN[C@@H]4C3)c(F)cc2c1=O	MIC50	Resistant						0.06 µg/mL
CCOC(=O)/C(=C\c1ccc(N(CCC#N)CCC#N)cc1)NC(=O)c1cc([N+](=O)[O-])ccc1Cl	inhibition	H37Rv		BACTEC		12.5 µg/mL		0%
Nc1cccc(-c2cn(CC(Oc3ccc(Cl)cc3)c3ccc(Cl)cc3Cl)nn2)c1	MIC	H37Rv		GFP / reporter gene				>256 µg/mL
COc1ccc(C2OC(C3=C(C)NC(=O)NC3c3ccccc3F)=NN2C(C)=O)cc1	inhibition	H37Rv		agar / visual reading		250 µg/mL		48%
O=C(Cc1ccccc1)N[C@@H]1C(=O)N2C3=C(CSC12)CN(C(=O)c1ccc(F)cc1)OC3=O	MIC	H37Rv						15.3 µM
COC1CC2CCC(C)C(O)(O2)C(=O)C(=O)N2CCCCC2C(=O)OC(C(C)CC2CCC(O)C(OC)C2)CC(=O)C(C)C=C(C)C(OC(=O)CCCN2CCCC2)C(OC)C(=O)C(C)CC(C)/C=C\C=C/C=C1C	inhibition	H37Rv		BACTEC		12.5 µg/mL		1%
CCCCc1ccc(N2C(=S)c3cc(Cl)ccc3NC2(C)C)cc1	MIC	My 331/88						>125 µg/mL
O=[N+]([O-])c1ccc2nc(/C=C(\O)c3ccccc3)c(/C=C(\O)c3ccccc3)nc2c1	MIC							>6.25 µg/mL
CC(=O)N1N=C(C2=C(C)NC(=O)NC2c2ccccc2F)OC1c1ccccc1F	inhibition	H37Rv		agar / visual reading		250 µg/mL		62%
COC(=O)[C@]1([C@]2(C)CCC(=O)O2)CC(=O)c2c(cc3c(c2O)C2C=CC4(C3)C(=O)c3cc(C)cc(O)c3C(=O)[C@@]4(O)C2=O)O1	MIC							216.6 µg/mL
Nc1ccc(C(=NNc2ccc([N+](=O)[O-])cn2)c2ccc(N)cc2)cc1	MIC bound	H37Rv		BACTEC				>12.5 µg/mL
COc1cc(OC)c(C(=O)CCc2ccccc2)c(OC)c1	MIC	H37Rv		MTT				>128 µM
O=C1NC(=O)C2C3OC(C(Cl)C3Cl)C12	inhibition	H37Rv		BACTEC		12.5 µg/mL		30%
CC(C)=CC1C[C@](C)(O)C2C3CCC4C(CC=C5C(C)(C)[C@@H](O[C@@H]6OC[C@@H](O)[C@H](OC7O[C@H](CO)[C@@H](O)[C@H](O)[C@H]7OC(=O)/C=C/c7ccc(O)cc7)[C@H]6O[C@@H]6O[C@@H](CO)[C@H](O)[C@H]6O)CC[C@@]54C)C34CC2(OO4)O1	MIC							50 µg/mL
CC1=CC(=O)c2c(O)cccc2C1=O	MIC	CIBIN 99 (MDR-MTB)		resazurin				1.56 µg/mL
COc1ccc2c(c1OC(C)=O)-c1cc(OC(C)=O)cc3c1C(C2)NCC3.Cl	inhibition	H37Rv		BACTEC		12.5 µg/mL		-6%
O=C(CCN1C(=O)/C(=C/c2ccc(OCc3ccccc3)cc2)SC1=S)NNC(=O)c1ccccc1	MIC	H37Rv						24.18 µM
COc1cc2c3c(c1OC)-c1cc4c(cc1CC3N(C=O)CC2)OCO4	MIC	H37RvIr		resazurin				>50 µg/mL
O=C(/C=C1\N[C@@H]2CCCC[C@H]2N\C1=C/C(=O)c1ccccc1)c1ccccc1	EC50							>6.25 µg/mL
CN(C)CCCC12OC(c3ccccc31)C(O)c1ccccc12	MIC bound	H37Rv		BACTEC				>12.5 µg/mL
CC12C(=O)c3cccc(O)c3C(=O)C1CC13OC12C(=O)c1c(O)cccc1C3=O	MIC	H37Rv (S-MTB)		resazurin				25 µg/mL
COC(=O)[C@H]1[C@H](O)[C@H](C)[C@@H](O)[C@@H](C)/C=C(\C)C2=C3C(=C(C)C(=O)c4c(O)c(c(C)c(OC(C)=O)c43)NC(=O)/C(C)=C/C=C\[C@@H](C)C(O)[C@@H](C)[C@H]1O)OCO2	MIC	H37Rv			VERO			0.8 µg/mL
COc1cccc2c1cc1c3c(cc4c(c32)OCO4)C(=O)N1	MIC	H37RvEr		resazurin				12.5 µg/mL
O=C(CCN1C(=O)/C(=C/c2ccc3c(c2)OCO3)SC1=S)NNC(=O)c1cccc2ccccc12	MIC	H37Rv						24.75 µM
COc1ccc(-n2c(C)nc3ccc(Cl)cc3c2=S)cc1	MIC	My 331/88						31 µg/mL
O=C(CNNC(=S)Nc1cccc2ccccc12)c1cccc2c1Nc1ccccc1S2	MIC bound	H37Rv		BACTEC				>12.5 µg/mL
CC(=O)Oc1cc(Cl)ccc1C(=O)Nc1ccc(Br)cc1	MIC	My 331/88						2 µg/mL
COc1ccc2c(ccc3nc(CCC(=O)O)n(C)c(=O)c32)c1	MIC bound	H37Rv		BACTEC				>12.5 µg/mL
CC1=CC(=O)c2c(O)ccc(-c3ccc(O)c4c3C(=O)C(C)=CC4=O)c2C1=O	MIC	H37Rv (S-MTB)		resazurin				3.13 µg/mL
CC(=O)O[C@@H]1C[C@H]2O[C@@H]3C=C(C)CC[C@]3(C)[C@]1(C)[C@]21CO1	MIC	H37Rv		BACTEC				≥12.5 µg/mL
CO[C@H]1/C=C/O[C@@]2(C)Oc3c(C)c(O)c4c(=O)c(c5oc6cc(N7CCN(CC(C)C)CC7)cc(=O)c6nc5c4c3=C2O)NC(=O)/C(C)=C\C=C\[C@H](C)[C@H](O)[C@@H](C)[C@@H](O)[C@@H](C)[C@H](OC(C)=O)[C@@H]1C	inhibition	Kurono				5 µg/mL	inside macrophages	95.4%
Fc1ccc(NC(=S)S)cc1	inhibition	H37Rv		BACTEC		12.5 µg/mL		76%
O=C(CCN1C(=O)/C(=C/c2ccc([N+](=O)[O-])cc2)SC1=S)NNC(=O)c1cccnc1	MIC	H37Rv						3.41 µM
CCN1C(=O)CC2CCCC1C2	inhibition	H37Rv		BACTEC		12.5 µg/mL		5%
CC(=O)Oc1c(Cl)cccc1C(=O)Nc1ccc(Cl)cc1	MIC	My 331/88						4 µg/mL
Oc1c(OCc2nnc(CCCCCCCCc3nnc(COc4ccc5ccccc5c4O)o3)o2)ccc2ccccc12	inhibition	H37Rv		resazurin		6.25 µg/mL		-27%
CC(=O)Oc1c(Cl)cccc1C(=O)Nc1cccc(Cl)c1	MIC	My 331/88						4 µg/mL
CC1(C)OC(CO)C2OC(C)(C)OCC2O1	inhibition	H37Rv		BACTEC		12.5 µg/mL		12%
CC(C)(C)c1cn(CC(Oc2ccc(Cl)cc2)c2ccc(Cl)cc2Cl)nn1	MIC	H37Rv		GFP / reporter gene				>256 µg/mL
C=CCn1cc(C(=O)NC(=O)NCCCCCOC(=O)CCCCCCCCCCC(=O)OCCCCCNC(=O)NC(=O)c2cn(CC=C)c(=O)n(C)c2=O)c(=O)n(C)c1=O	MIC bound	H37Rv		BACTEC				>12.5 µg/mL
O=C(Cc1ccccc1)N[C@@H]1C(=O)N2C(C(=O)O)=C(CN(O)C(=O)c3ccccc3)CSC12	MIC	H37Rv						53 µM
CC(C)CN.CC(C)CNC(=S)S	MIC bound	H37Rv		BACTEC				>12.5 µg/mL
O=C(N/N=C/c1ccc(Cl)cc1)Nc1ccc2c(c1)C(=O)C(=O)N2CN1CCNCC1	MIC	MDR		resazurin				25 µg/mL

The last 7 rows once more:

compound,read-out,strain,changes,read by,cells,dose,conditions,value
CC(=O)Oc1c(Cl)cccc1C(=O)Nc1cccc(Cl)c1,MIC,My 331/88,,,,,,4 µg/mL
CC1(C)OC(CO)C2OC(C)(C)OCC2O1,inhibition,H37Rv,,BACTEC,,12.5 µg/mL,,12%
CC(C)(C)c1cn(CC(Oc2ccc(Cl)cc2)c2ccc(Cl)cc2Cl)nn1,MIC,H37Rv,,GFP / reporter gene,,,,>256 µg/mL
C=CCn1cc(C(=O)NC(=O)NCCCCCOC(=O)CCCCCCCCCCC(=O)OCCCCCNC(=O)NC(=O)c2cn(CC=C)c(=O)n(C)c2=O)c(=O)n(C)c1=O,MIC bound,H37Rv,,BACTEC,,,,>12.5 µg/mL
O=C(Cc1ccccc1)N[C@@H]1C(=O)N2C(C(=O)O)=C(CN(O)C(=O)c3ccccc3)CSC12,MIC,H37Rv,,,,,,53 µM
CC(C)CN.CC(C)CNC(=S)S,MIC bound,H37Rv,,BACTEC,,,,>12.5 µg/mL
O=C(N/N=C/c1ccc(Cl)cc1)Nc1ccc2c(c1)C(=O)C(=O)N2CN1CCNCC1,MIC,MDR,,resazurin,,,,25 µg/mL